# B1: Bgl-gyp17: recombinant ginsenoside glycosidase from Terrabacter Gsoil 3082, SEQ ID NO. 1, 589 residues (protein, listed as Terrebacter sp.)
# chain: MDPYEDPRLPVEVRVEDLLGRLSLEEKVGLMFQTVIEAGSDGTVLEHPGSISKSPTSTVVLDKHLTHFNVHALDDPRMAARWSNALQALAERTPHGIPVTVSTDPRHAFIENVGVSFSAGAFSQWPEPLGLAALRDADAVRRFADIARQEYVAVGIRAALHPTLDLATEPRWARQAGTFGQDPDLVTELGVAYLKGFQGDSLGSGSVACTSKHFPGGGPQKDGEDAHFPYGREQVYPGGRFADHLKPFPPIIEAGTAGIMPYYGMPVDLVVDGVEIEPIGFGYNKQVVTGLLREKLGYDGVVVTDWELVNDNHVGDQVLPARAWGVEHLDPHGRMELILEAGADQFGGEECVEILLDLVAQGRVTEARVDESARRILAVKFRLGLFENPYVDEDEAAATVGRDDFREEGYAAQARSVTVLHHEGGRLPLEHGLRIYAEQVSPEAVARHGKLVDRPEDADVAVVRLTAPFDPRSDLFLESWFHQGSLDFPPGLVARLERIAAVCPLVVDVVLDRPAVLTPLLRFASAVVGSFGSCDDALLDALTGTIAPVGRLPFDLPRSMDQVRAHGEDVPGYDDPLFPFGHGLRLDTE
# modifications: PEPTIDE (1)..(589) amino acid sequence of Bgl-gyp17
# notes: 1, 589 residues
# Format: biochemical
# Conditions: sodium phosphate buffer
# Protocol: The thermo-dependence of the activity was assayed in 50 mM potassium phosphate buffer at various temperatures ranging from 4 to 90° C. Thermostability was tested by incubating aliquots of the enzyme in 50 mM potassium phosphate buffer for 30 minutes at different temperatures. After cooling the sample on ice for 10 minutes, residual activity was determined by a standard analysis;
# The pH effect on the enzymatic activity was measured using 2.0 mM pNPGlc in the following buffer (50 mM):
# Buffer: pH range of 2 to 10: KCl—HCl (pH 2), glycine-HCl (pH 3), sodium acetic acid (pH 4 and 5), sodium phosphate (pH 6 and 7), Tris-HCl (pH 8 and 9) and glycine-sodium hydroxide (pH 10).
# The enzyme was incubated in each of the above mentioned buffers at 4° C. for 24 hours, and then pHPGlc was analyzed in 50 mM potassium buffer to measure the enzymatic stability according to pH change. The activity was measured by the above mentioned method.
# The results were represented as an activity probability obtained at the optimum pH.
# The temperature-dependent activity in the 50 mM potassium phosphate buffer was analyzed within the temperature range of 4-90° C. using 2.0 mM pNPGlc at the optimum pH for 5 minutes. […] The sample was cooled in ice for 10 minutes, and the residual activity was measured by pNPGlc analysis.
molecule,measurement,value
B1,temperature of maximum activity,45 °C

# From patent publication US8735129B2, “Ginsenoside glycosidase derived from the genus Terrabacter, and use thereof” (Korea Research Institute of Bioscience and Biotechnology, priority 2009, dated 2014)
